Columns and labels:
[1] = system: M. bovis resistant mutant INH^R-4
[2] = system: M. bovis resistant mutant INH^R-4; experiment: impedance response drug susceptibility test, resistant mutant

For `NNC(=O)c1ccncc1` [INH, isoniazid], the “MIC relative to MIC of the sensitive strain” value ([1]; mutant INH^R-4) was 8 ×MIC of the sensitive strain, the MIC ([1]; spontaneous INH-resistant mutant INH^R-4, micro-broth dilution) was “approximately 50 μg/ml” and the “"normalized" value of the slope of the impedance response” value ([2]; 12.5 μg/ml INH (2×MIC), slope at four hours divided by slope of untreated cells, FIG. 11) was “one”. For the same molecule, the “effect on the viability of the resistant mutant” value ([2]; exposure to 12.5 μg/ml of INH) was “no affect on the viability”.
